The results in this text go back to US12594289B2, “Potentiation of antibiotic effect” (The University of North Carolina at Chapel Hill, priority 2017, dated 2026).

In brackets after ≈: the same amount, converted by molar mass.

This experiment concerns S. aureus. In words: microbe, parasite or virus in culture. Format: cell-based, Staphylococcus aureus.

Take `NC[C@H]1O[C@H](O[C@H]2[C@H](O)[C@@H](O[C@H]3O[C@H](CO)[C@@H](O)[C@H](N)[C@H]3O)[C@H](N)C[C@@H]2N)[C@H](N)C[C@@H]1O` [tobramycin]: the “day by which high level resistance to tobramycin was selected for” value is at most 10 days. Besides, the MIC (Staphylococcus aureus, 624 h, read-out: tobramycin resistance level (MIC) reached) worked out at 100 µg/mL (≈ 214 µM).
